Compound potency records, mixed from different reports. Data source: NIAID ChemDB in PubChem.

All rows: whole-cell or culture tests; species: Mycobacterium avium complex; endpoint: MIC

An empty or dashed field is not shown. Neighbouring rows are from separate reports.

| smiles | strain or isolate | method | result |
|---|---|---|---|
| Cc1c(CNc2ccc(OC(F)F)cc2)cnc2nc(N)nc(N)c12 | NJ211 | - | ≤0.13 µg/mL |
| CCCCCCCCO[C@H]1OC([C@@H](COC)O[C@H]2O[C@H]([C@@H](O)CO)[C@@H](O)[C@@H]2O)[C@@H](OC)[C@@H]1OC | NJ168 | - | >12.8 µg/mL |
| CCCNC(=O)OCCn1sc2ccccc2c1=S | AN3 | - | 4 µg/mL |
| NCC[C@H](O)C(=O)N[C@@H]1C[C@H](N)[C@@H](O[C@H]2O[C@H](CN)[C@@H](O)[C@H](O)[C@H]2O)[C@H](O)[C@H]1O[C@H]1O[C@H](CO)[C@@H](O)[C@H](N)[C@H]1O | 905 | - | 8 µg/mL |
| Nc1ccc(S(=O)(=O)c2ccc(N)cc2)cc1 | 3404-4 | - | >64 µg/mL |
| CC[C@H]1OC(=O)[C@H](C)[C@@H](O[C@H]2C[C@@](C)(OC)[C@@H](O)[C@H](C)O2)[C@H](C)[C@@H](O[C@@H]2O[C@H](C)C[C@H](N(C)C)[C@H]2O)[C@](C)(O)C[C@@H](C)CN(C)[C@H](C)[C@@H](O)[C@]1(C)O | SK095 | - | 32 µg/mL |
| NC(=S)c1ccnc(SCc2ccc([N+](=O)[O-])cc2)c1 | MY330/88 | - | 31 µM |
| CC(C)(C)NC(=O)OCCn1sc2ccccc2c1=O | AN2 | - | >32 µg/mL |
| CC[C@H]1OC(=O)[C@H](C)[C@@H](OC(=O)Cc2ccncc2)[C@H](C)[C@@H](O[C@@H]2O[C@H](C)C[C@H](N(C)C)[C@H]2O)C(C)(O)C[C@@H](C)/C(=N\OCCCOc2ccccc2)[C@H](C)[C@@H](O)[C@]1(C)O | 20096 (clarithromycin-resistant) | - | 25 µg/mL |
| Cc1c(CNc2ccc3ccc4cccc5ccc2c3c45)cnc2nc(N)nc(N)c12 | NJ3404 | - | ≤0.13 µg/mL |
| C[C@@H]1CN(c2c(F)c(N)c3c(=O)c(C(=O)O)cn(C4CC4)c3c2F)C[C@H](C)N1 | LV-2 | - | 2 µg/mL |
| CCCCCCCCO[C@@H]1O[C@H]([C@@H](COC)O[C@H]2O[C@H](COC(=O)c3ccccc3)[C@@H](OC(=O)c3ccccc3)[C@@H]2OC(=O)c2ccccc2)[C@H](OC)[C@H]1OC | NJ211 | - | >128 µg/mL |
| CO[C@H]1/C=C/O[C@@]2(C)Oc3c(C)c(O)c4c(O)c(c5c(c4c3C2=O)NC2(CCN(CC(C)C)CC2)N=5)=NC(=O)/C(C)=C\C=C\[C@H](C)[C@H](O)[C@@H](C)[C@@H](O)[C@@H](C)[C@H](OC(C)=O)[C@@H]1C | 800-4 | - | 0.013 µg/mL |
| Cc1ccc(CSc2cc(C(N)=S)ccn2)cc1 | MY330/88 | - | 31 µM |
| CCCCCCCCO[C@@H]1O[C@H]([C@@H](COC)O[C@H]2O[C@H](CO)[C@@H](O)[C@@H]2O)[C@H](OC)[C@H]1OC | NJ3404 | - | >128 µg/mL |
| CCCCCCCCO[C@@H]1O[C@@H](C(CO[C@@H]2O[C@@H](C(O)CO)[C@H](O)[C@H]2O)OC)[C@H](OC)[C@H]1OC | NJ304 | - | >128 µg/mL |
| CC[C@H]1OC(=O)[C@H](C)[C@@H](OC(=O)Cc2cccnc2)[C@H](C)[C@@H](O[C@@H]2O[C@H](C)C[C@H](N(C)C)[C@H]2O)C(C)(O)C[C@@H](C)/C(=N\OCCCOc2ccccc2)[C@H](C)[C@@H](O)[C@]1(C)O | 20039 (clarithromycin-susceptible) | - | 3.13 µg/mL |
| CCNC(=O)OCCn1sc2ccccc2c1=S | AN2 | - | 8 µg/mL |
| CCCCCCCCO[C@@H]1O[C@H]([C@@H](COC)O[C@H]2O[C@H](CO)[C@@H](O)[C@@H]2O)[C@H](OC)[C@H]1OC | NJ304 | - | >128 µg/mL |
| COc1ccc(/C(C)=N/NC(N)=S)cc1 | 100 | - | 0.125 µg/mL |
| CCc1nc2ccc(Cl)cn2c1C(=O)NCc1ccc(N2CCC3(CC2)OC[C@H](C)O3)c(F)c1 | Clinical isolate KAL | MTT | ≤0.03 µg/mL |
| CC[C@H]1OC(=O)[C@H](C)[C@@H](O[C@H]2C[C@@](C)(OC)[C@@H](OC(C)=O)[C@H](C)O2)[C@H](C)[C@@H](O[C@@H]2O[C@H](C)C[C@H](N(C)C)[C@H]2OC(=O)NNC2CCCCC2)C(C)(O)C[C@@H](C)/C(=N\OCCCC2CCCCC2)[C@H](C)[C@@H](O)[C@]1(C)O | 20092 (clarithromycin-resistant) | - | 0.39 µg/mL |
| CC[C@@]1(O)OC(=O)[C@H](C)[C@@H](O[C@H]2C[C@@](C)(OC)[C@@H](O)[C@H](C)O2)[C@H](C)[C@@H](O[C@@H]2O[C@H](C)C[C@H](N(C)C)[C@H]2O)[C@](C)(OC)C[C@@H](C)C(=O)[C@H](C)[C@@H](O)[C@]1(C)O | MO-1 | - | 32 µg/mL |
| CC[C@H]1OC(=O)[C@H](C)[C@@H](O[C@H]2C[C@@](C)(OC)[C@@H](OC(C)=O)[C@H](C)O2)[C@H](C)[C@@H](O[C@@H]2O[C@H](C)C[C@H](N(C)C)[C@H]2OC(=O)NNCc2ccc([N+](=O)[O-])cc2)C(C)(O)C[C@@H](C)/C(=N\OCCCC2CCCCC2)[C@H](C)[C@@H](O)[C@]1(C)O | 20039 (clarithromycin-susceptible) | - | 1.56 µg/mL |
| Cc1cc(NCc2cnc3nc(N)nc(N)c3c2C)c(Cl)cc1F | NJ211 | - | ≤0.13 µg/mL |
| CC[C@H]1OC(=O)[C@H](C)[C@@H](O[C@H]2C[C@@](C)(OC)[C@@H](OC(C)=O)[C@H](C)O2)[C@H](C)[C@@H](O[C@@H]2O[C@H](C)C[C@H](N(C)C)[C@H]2O)C(C)(O)C[C@@H](C)/C(=N\OCCN(C)c2ccccc2)[C@H](C)[C@@H](O)[C@]1(C)O | 20039 (clarithromycin-susceptible) | - | 1.56 µg/mL |
| CC[C@H]1OC(=O)[C@H](C)[C@@H](O[C@H]2C[C@@](C)(OC)[C@@H](O)[C@H](C)O2)[C@H](C)[C@@H](O[C@@H]2O[C@H](C)C[C@H](N(C)C)[C@H]2O)[C@](C)(O)C[C@@H](C)CN(C)[C@H](C)[C@@H](O)[C@]1(C)O | LV-2 | - | 16 µg/mL |
| Cc1c(CNc2cccc3c2CCCC3)cnc2nc(N)nc(N)c12 | NJ3404 | - | ≤0.13 µg/mL |
| CC(C)N=C(N)/N=C(\N)NOCCCOc1cc(Cl)c(Cl)cc1Cl | 800 | - | 64 µg/mL |
| CCCOc1ccc(NCc2cnc3nc(N)nc(N)c3c2C)cc1OC | NJ3404 | - | ≤0.13 µg/mL |
| CCCCCCCCOC1O[C@@H](C(O)COC2O[C@@H](C(O)CO)[C@H](O)[C@H]2O)[C@H](O)[C@H]1O | NJ168 | - | >128 µg/mL |
| CC(C)NC(=O)OCCn1sc2ccccc2c1=S | AN3 | - | 2 µg/mL |
| Cc1ccn2c(C(=O)NCc3ccc4c(c3)CCO4)c(C)nc2c1 | Clinical isolate PRV | MTT | 4 µg/mL |
| CCCCCCCCO[C@@H]1O[C@H]([C@@H](CO)O[C@H]2O[C@H](CO)[C@@H](O)[C@@H]2O)[C@H](O)[C@H]1O | NJ168 | - | >128 µg/mL |
| CC[C@H]1OC(=O)[C@H](C)[C@@H](O[C@H]2C[C@@](C)(OC)[C@@H](OC(C)=O)[C@H](C)O2)[C@H](C)[C@@H](O[C@@H]2O[C@H](C)C[C@H](N(C)C)[C@H]2OC(=O)NNCCCc2ccccc2)C(C)(O)C[C@@H](C)/C(=N\OCCCC2CCCCC2)[C@H](C)[C@@H](O)[C@]1(C)O | 20096 (clarithromycin-resistant) | - | 1.56 µg/mL |
| N#Cc1ccnc(SCc2c(F)cccc2[N+](=O)[O-])c1 | MY330/88 | - | >500 µM |
| CC1(C)N=C(N)N=C(N)N1OCCCOc1cc(Cl)c(Cl)cc1Cl | DW8 | - | 1 µg/mL |
| CC[C@H]1OC(=O)[C@H](C)[C@@H](O[C@H]2C[C@@](C)(OC)[C@@H](O)[C@H](C)O2)[C@H](C)[C@@H](O[C@@H]2O[C@H](C)C[C@H](N(C)C)[C@H]2O)[C@](C)(OC)C[C@@H](C)C(=O)[C@H](C)[C@@H](O)[C@]1(C)O | ATCC 15769 | - | 2 µg/mL |
| Cc1ccc2nc(C)c(C(=O)NCc3ccc(C(F)(F)F)cc3)n2c1 | Clinical isolate KAL | MTT | 0.06 µg/mL |
| CC(C)(C)NC(=O)OCCn1sc2ccccc2c1=S | ATCC 15769 | - | 8 µg/mL |
| NC(=S)c1ccnc(SCc2ccccc2)c1 | MY330/88 | - | 62 µM |
| CC[C@H]1OC(=O)[C@H](C)[C@@H](O[C@H]2C[C@@](C)(OC)[C@@H](OC(C)=O)[C@H](C)O2)[C@H](C)[C@@H](O[C@@H]2O[C@H](C)C[C@H](N(C)C)[C@H]2O)C(C)(O)C[C@@H](C)/C(=N\OCCc2ccccc2)[C@H](C)[C@@H](O)[C@]1(C)O | 20096 (clarithromycin-resistant) | - | 6.25 µg/mL |
| Cc1c(CNc2ccccc2Cl)cnc2nc(N)nc(N)c12 | NJ168 | - | ≤0.13 µg/mL |
| O=c1c2ccccc2sn1CCO | AN1 | - | 32 µg/mL |
| CC[C@H]1OC(=O)[C@H](C)[C@@H](O[C@H]2C[C@@](C)(OC)[C@@H](OC(C)=O)[C@H](C)O2)[C@H](C)[C@@H](O[C@@H]2O[C@H](C)C[C@H](N(C)C)[C@H]2O)C(C)(O)C[C@@H](C)/C(=N\OCC2CCCCC2)[C@H](C)[C@@H](O)[C@]1(C)O | 20096 (clarithromycin-resistant) | - | 6.25 µg/mL |
| Cc1noc(NS(=O)(=O)c2ccc(N)cc2)c1C | LA-1 | - | 50 µg/mL |
| CCCCCCCCO[C@@H]1O[C@@H]([C@H](COCc2ccccc2)O[C@H]2O[C@H](COCc3ccccc3)[C@@H](OCc3ccccc3)[C@@H]2OCc2ccccc2)[C@H](OCc2ccccc2)[C@H]1OCc1ccccc1 | NJ211 | - | >128 µg/mL |
| CC(C)NC(=O)OCCN=c1ssc2ccccc12 | ATCC 15769 | - | 8 µg/mL |
| COc1ccc(SCc2cnc3nc(N)nc(N)c3c2C)cc1OC | NJ3404 | - | ≤0.13 µg/mL |
| CC[C@H]1OC(=O)[C@H](C)[C@@H](O[C@H]2C[C@@](C)(OC)[C@@H](O)[C@H](C)O2)[C@H](C)[C@@H](O[C@@H]2O[C@H](C)C[C@H](N(C)C)[C@H]2O)[C@](C)(OC)C[C@@H](C)C(=O)[C@H](C)[C@@H](O)[C@]1(C)O | MO-1 | - | 8 µg/mL |
| CCNC(=O)OCCN=c1ssc2ccccc12 | AN3 | - | 4 µg/mL |
| N#Cc1ccnc(SCc2cccc(Cl)c2)c1 | MY330/88 | - | 62.5 µM |
| CCCCNC(=O)OCCn1sc2ccccc2c1=S | AN3 | - | 2 µg/mL |
| CO[C@H]1/C=C/O[C@@]2(C)Oc3c(C)c(O)c4c(=O)c(c5oc6cc(N7CCN(CC(C)C)CC7)cc(=O)c6nc5c4c3=C2O)NC(=O)/C(C)=C\C=C\[C@H](C)[C@H](O)[C@@H](C)[C@@H](O)[C@@H](C)[C@H](OC(C)=O)[C@@H]1C | N-444 | - | 0.06 µg/mL |

A second listing of 6 rows from above:

smiles	strain or isolate	method	result
CO[C@H]1/C=C/O[C@@]2(C)Oc3c(C)c(O)c4c(O)c(c5c(c4c3C2=O)NC2(CCN(CC(C)C)CC2)N=5)=NC(=O)/C(C)=C\C=C\[C@H](C)[C@H](O)[C@@H](C)[C@@H](O)[C@@H](C)[C@H](OC(C)=O)[C@@H]1C	800-4	-	0.013 µg/mL
CCCCCCCCO[C@@H]1O[C@@H]([C@H](COCc2ccccc2)O[C@H]2O[C@H](COCc3ccccc3)[C@@H](OCc3ccccc3)[C@@H]2OCc2ccccc2)[C@H](OCc2ccccc2)[C@H]1OCc1ccccc1	NJ211	-	>128 µg/mL
CO[C@H]1/C=C/O[C@@]2(C)Oc3c(C)c(O)c4c(=O)c(c5oc6cc(N7CCN(CC(C)C)CC7)cc(=O)c6nc5c4c3=C2O)NC(=O)/C(C)=C\C=C\[C@H](C)[C@H](O)[C@@H](C)[C@@H](O)[C@@H](C)[C@H](OC(C)=O)[C@@H]1C	N-444	-	0.06 µg/mL
CC(C)NC(=O)OCCn1sc2ccccc2c1=S	AN3	-	2 µg/mL
Nc1ccc(S(=O)(=O)c2ccc(N)cc2)cc1	3404-4	-	>64 µg/mL
CC[C@@]1(O)OC(=O)[C@H](C)[C@@H](O[C@H]2C[C@@](C)(OC)[C@@H](O)[C@H](C)O2)[C@H](C)[C@@H](O[C@@H]2O[C@H](C)C[C@H](N(C)C)[C@H]2O)[C@](C)(OC)C[C@@H](C)C(=O)[C@H](C)[C@@H](O)[C@]1(C)O	MO-1	-	32 µg/mL